Measured values from several laboratories, pooled; numbers as filed in NIAID ChemDB.

Shared fields: whole-cell or culture tests; agent: HIV-2

Inhibition is in % at the dose shown (toxicity tests: loss of growth or viability).

SMILES,read-out,method,cell line,strain or isolate,dose,value
CCCCN1C(=O)[C@@H](Cc2ccccc2)NC1=S,inhibition,RT activity,MT-4,-,1 µg/mL,1%
CCOP(=O)(CC(O)n1cc(-n2ccc(=O)[nH]c2=O)nn1)OCC,inhibition,-,-,ROD,100 µM,0%
CCCCCCCCCC(=O)Oc1ccc(COP(=O)(OCc2ccc(OC(=O)CCCCCCCCC)cc2)OP(=O)(O)OC[C@@H]2C=C[C@H](n3cc(C)c(=O)[nH]c3=O)O2)cc1,EC50,syncytia / microscopy,CEM,ROD,-,0.32 µM
COc1ncnc(NS(=O)(=O)c2ccc(N=C3C(=O)N(CN4CCOCC4)c4ccccc43)cc2)c1OC,inhibition,cytopathic effect / MTT,MT-4,ROD,2 µg/mL,16%
Cc1cn([C@@H]2O[C@@H]3CN[C@@]4(OCC5CCOC5)CS(=O)(=O)O[C@@]34[C@H]2O)c(=O)[nH]c1=O,EC50,-,MT-4,ROD,-,>250 µM
CCOP(=O)(OCC)C(O)Cn1cc(Cn2cnc3c(N)ncnc32)nn1,inhibition,-,CEM,ROD,100 µM,0%
CCO[C@]12CS(=O)(=O)O[C@@]13C(CN2)O[C@@H](n1cc(C)c(=O)n(C)c1=O)[C@@H]3O[Si](C)(C)C(C)(C)C,EC50,-,MT-4,ROD,-,>50 µM
CCOP(=O)(CCn1cc(-n2c[n+](C)c(=O)[nH]c2=O)nn1)OCC,inhibition,-,CEM,ROD,100 µM,0%
Cc1cn([C@H]2C=C[C@@H](CO)O2)c(=O)[nH]c1=O,EC50,syncytia / microscopy,CEM,ROD,-,2.3 µM
O=C1[C@@H](Cc2ccc(O)cc2)NC(=S)N1c1ccccc1,inhibition,cytopathic effect / XTT,MT-4,-,10 µg/mL,12%
CC(=O)NC1C=CN(c2cn(C(O)CP(=O)(O)O)nn2)C(=O)N1,inhibition,-,CEM,ROD,100 µM,0%
O=C(NCCc1ccccc1)Nc1nc2ccccc2s1,inhibition,cytopathic effect / XTT,MT-4,-,100 µg/mL,50%
CCCCO[C@]12CS(=O)(=O)O[C@@]13[C@@H](CN2)O[C@@H](n1cc(C)c(=O)[nH]c1=O)[C@@H]3O,EC50,-,CEM,ROD,-,>125 µM
CCCCC(=O)Oc1ccc(COP(=O)(OCc2ccc(OC(=O)CCCC)cc2)OP(=O)(O)OC[C@@H]2C=C[C@H](n3cc(C)c(=O)[nH]c3=O)O2)cc1,EC50,syncytia / microscopy,CEM/TK-,ROD,-,15 µM
O=C1[C@@H](Cc2ccccc2)NC(=S)N1c1ccccc1,inhibition,cytopathic effect / XTT,MT-4,-,100 µg/mL,80%
CCOP(=O)(CCCn1cc(-n2ccc(=O)[nH]c2=O)nn1)OCC,inhibition,-,CEM,ROD,100 µM,0%
CCCCCCCCCCCCCC(=O)Oc1ccc(COP(=O)(OCc2ccc(OC(=O)CCCCCCCCCCCCC)cc2)OP(=O)(O)OC[C@@H]2C=C[C@H](n3cc(C)c(=O)[nH]c3=O)O2)cc1,EC50,syncytia / microscopy,CEM,ROD,-,2 µM
N#Cc1csc(NC(=O)NCCc2ccccc2)n1,inhibition,RT activity,MT-4,-,1 µg/mL,91%
CC(=O)NC1C=CN(c2cn(C(O)P(=O)(O)O)nn2)C(=O)N1,inhibition,-,CEM,ROD,100 µM,0%

The last 3 rows once more:

CCCCCCCCCCCCCC(=O)Oc1ccc(COP(=O)(OCc2ccc(OC(=O)CCCCCCCCCCCCC)cc2)OP(=O)(O)OC[C@@H]2C=C[C@H](n3cc(C)c(=O)[nH]c3=O)O2)cc1 ; read-out: EC50 ; method: syncytia / microscopy ; cell line: CEM ; strain or isolate: ROD ; value: 2 µM
N#Cc1csc(NC(=O)NCCc2ccccc2)n1 ; read-out: inhibition ; method: RT activity ; cell line: MT-4 ; dose: 1 µg/mL ; value: 91%
CC(=O)NC1C=CN(c2cn(C(O)P(=O)(O)O)nn2)C(=O)N1 ; read-out: inhibition ; cell line: CEM ; strain or isolate: ROD ; dose: 100 µM ; value: 0%

Blank or dashed fields: not listed here. ECn: concentration that inhibits the pathogen or its effect by n%. Neighbouring rows are from separate reports.